Pooled drug test results. Numbers come from NIAID ChemDB, via PubChem.

Common to all: toxicity to cultured cells; cells: MRC-5; endpoint: CC50

Conditions beyond the fields shown may differ between rows.

compound | read by | result
CN1C(=O)c2ccccc2N(Cc2ccc(Cl)cc2)S1(=O)=O | - | 2.9 µM
CCO/N=C/c1ccc(OCCCCCOc2ccc(Cl)nn2)cc1 | neutral red | >0.5 µg/mL
CCCCN1C(=O)c2ccccc2N(C(=O)c2ccc(OC)cc2)S1(=O)=O | - | 57.2 µM
O=S1(=O)N=C(OCc2ccc(-c3ccccc3)cc2)c2ccccc2N1Cc1ccc(-c2ccccc2)cc1 | - | >47 µM
CCCCCCCCCCCCCCCCOCCCOP(=O)(O)OCC(CO)CCn1cnc2c(=O)[nH]c(N)nc21 | - | >158 µM
CCO/N=C/c1ccc(OCCC2CCN(c3ccc(C)nn3)CC2)c(C)c1 | neutral red | >0.1 µg/mL
Nc1nc2c(ncn2OCC(CO)CCP(=O)(O)O)c(=O)[nH]1 | - | >100 µg/mL
O=S1(=O)N=C(OCC2CCCCC2)c2ccccc2N1Cc1ccc(Cl)cc1 | - | 2.3 µM
Nc1nc2c(ncn2CCC(CO)CO)c(=O)[nH]1 | - | >158 µM
Nc1nc2c(ncn2COC(CO)CO)c(=O)[nH]1 | - | >100 µM
CCCCN1C(=O)c2ccccc2N(C(=O)c2ccc(Br)cc2)S1(=O)=O | - | 51.5 µM
Nc1nc2c(ncn2OCCCCP(=O)(O)O)c(=O)[nH]1 | - | >100 µg/mL
CC(C)COC1=NS(=O)(=O)N(Cc2ccc(Cl)cc2)c2ccccc21 | - | 65.9 µM
CO/N=C/c1ccc(OCCC2CCN(c3nc(OC)nc(OC)n3)CC2)cc1 | neutral red | >0.1 µg/mL
CC(C)N1C(=O)c2ccccc2N(Cc2ccc(Cl)cc2)S1(=O)=O | - | 6.8 µM
COc1ccc(CN2c3ccccc3C(OCc3ccccc3)=NS2(=O)=O)cc1 | - | >61 µM
CCO/N=C/c1ccc(OCCC2CCN(c3ccc(Cl)nn3)CC2)c(OC)c1 | neutral red | >0.1 µg/mL
O=C1c2ccccc2N(Cc2ccc(Cl)cc2)S(=O)(=O)N1Cc1ccc(Cl)cc1 | - | >56 µM
C=CCO/N=C/c1ccc(OCCC2CCN(c3ccc(Cl)nn3)CC2)c(C)c1 | visual reading | >1 µg/mL
COCCOCn1cc(C(N)=S)c2c(N)ncnc21 | - | >100 µM
COc1ccc(CN2C(=O)c3ccccc3N(Cc3ccc(OC)cc3)S2(=O)=O)cc1 | - | >57 µM
CCO/N=C/c1cc(C)c(OCCC2CCN(c3ccc(Cl)nn3)CC2)c(C)c1 | visual reading | >1 µg/mL
CCN1C(=O)c2ccccc2N(Cc2ccc(Cl)c(Cl)c2)S1(=O)=O | - | 6.4 µM
CCO/N=C/c1ccc(OCCC2CCN(c3nc(OC)nc(OC)n3)CC2)cc1 | neutral red | >0.1 µg/mL
Nc1nc2c(ncn2COCCO)c(=O)[nH]1 | - | >1000 µM

For reference, 3 entries again:

compound	read by	result
Nc1nc2c(ncn2COCCO)c(=O)[nH]1	-	>1000 µM
CCO/N=C/c1ccc(OCCC2CCN(c3nc(OC)nc(OC)n3)CC2)cc1	neutral red	>0.1 µg/mL
Nc1nc2c(ncn2COC(CO)CO)c(=O)[nH]1	-	>100 µM

CCn: concentration that lowers growth or viability of the cells by n%. Blank or dashed fields: not listed here.